Experimental findings from paper PMC8865458 are described below.

The data set deals with His-NrtR (Pseudomonas aeruginosa PAK). Put plainly: EMSA. Particulars: 0, 4, 8 uM NrtR, 40 ng DNA; 10 mM Tris, 1 mM DTT, pH 7.5, […]; recombinant protein; residues 1-231; protein details: N-terminal His (pET28a); probe letters rebuilt from the primers and the genome. (In general: A gel shift assay detects complexes by their altered migration in electrophoresis.)

With “TGCTACTCCTTGCATTGCCAGCGCCCGGCTCTTCCAGGCGCTCACCCCCGTGCCCGAGGGATTTCGGTTCGCATCCAGGCTGGCCCGACGGCTTTCCGGCGTTTCGTCGCCTCGGGAAGACACATCGGGTGGTACCGGATTATAAAAGACTAATCCTACGTCTTTTAAAGATTTGTCCGATCTGCGGTGTCATGCAACTAGTGGCGTTGTGCCTTCCTTGACAAGCCTTGCGGCATGCCACAAGAATTTTGCCAACCTTTCGAGTCATCCGATATTCATCAATGGCTCCTACAAGATCCGACGGAGTGGATCTTACAAGCGAAGGTGAGGGCCGCGCAGCGGCTTCGATGATAGGGAGATCGTCACC (double strand) [tssA1 promoter fragment]”, the binding result is reported as “binds”.
